Results of unrelated studies side by side (data: NIAID ChemDB).

Common to all: whole-cell or culture tests; organism: Mycobacterium tuberculosis

ECn: concentration that inhibits the pathogen or its effect by n%. A number after MIC or MFC names an inhibition level or a share of isolates. MIC bound comes from a single tested concentration. Neighbouring rows are from separate reports. Inhibition is in % at the dose shown (toxicity tests: loss of growth or viability). An empty or dashed field is not shown.

| smiles | strain or isolate | setting | endpoint | read by | dose | mutations | result |
|---|---|---|---|---|---|---|---|
| O=C(CNC(=O)c1ccccc1)N/N=C/c1ccc2c(c1)OCO2 | H37Rv |  | MIC bound | BACTEC |  |  | >12.5 µg/mL |
| N[C@@H]1CONC1=O |  |  | MIC |  |  |  | 20 µg/mL |
| O=[N+]([O-])c1cn2c(n1)OC[C@@H](OCc1ccc(C#Cc3ccc(F)cc3)cn1)C2 |  |  | MIC90 | low oxygen |  |  | 1 µM |
| CC(=O)C1(N=Nc2ccc(S(=O)(=O)O)cc2)CCOC1=O | H37Rv |  | inhibition | BACTEC | 12.5 µg/mL |  | 12% |
| CSc1ccc(-c2nn(-c3ccccc3)cc2C2CC(c3cc(Br)c(O)c(Br)c3)=NN2)cc1 | H37Rv |  | inhibition | BACTEC | 6.25 µg/mL |  | 55% |
| Cc1cn2c(C(=O)NCc3ccc(N4CCC(c5ccc(OC(F)(F)F)cc5)CC4)cc3)c(C)nc2s1 | H37Rv |  | MIC | resazurin / fluorescence |  | cydKO | 0.002 µM |
| NC(=S)N/N=C/c1cn(Cc2ccccc2)c2ccccc12 | H37Rv |  | MIC bound | resazurin |  |  | <6.25 µg/mL |
| COc1cc(-c2nnc(SCC(=O)c3ccc(Cl)cc3Cl)o2)cc(OC)c1OC | H37Rv |  | inhibition | BACTEC | 6.25 µg/mL |  | 12% |
| O=[N+]([O-])c1cn2c(n1)OC[C@@H](OCc1ccc(-c3ccc(Oc4ccc(F)cc4)nc3)cc1)C2 |  |  | MIC90 | resazurin |  |  | 0.02 µM |
| CCOC(=O)Cc1ccnc2ccccc12 | H37Rv |  | MIC |  |  |  | >6.25 µg/mL |
| O=C(NNCc1ccccc1F)c1ccncc1 | Kanamycin-resistant |  | MIC |  |  |  | 0.4 µg/mL |
| COc1cc2ccc(Br)cc2cc1[C@@H](c1ccccc1)[C@@](O)(CCN(C)C)c1ccc(Br)cc1 | Clinical isolate |  | MIC | resazurin |  |  | 0.152 µg/mL |
| COc1ccc(C2CC(c3c(O)c4cc(C)ccc4oc3=O)=Nc3ccccc3N2)cc1 | H37Rv |  | MIC | resazurin |  |  | >6.25 µg/mL |
| CC(=O)Nc1cccc(/C=C/C(=O)c2ccccc2O)c1 | H37Rv |  | EC50 |  |  |  | >12.5 µg/mL |
| CC(=O)C(CC(=O)Nc1ccc(C)cc1)C(=O)Nc1cccc2ccccc12 | H37Rv |  | inhibition |  | 30 µg/mL |  | 0% |
| CSc1ccc(-c2nn(-c3ccccc3)cc2C2CC(c3ccc(O)cc3)=NN2)cc1 | H37Rv |  | inhibition | BACTEC | 6.25 µg/mL |  | 42% |
| CC(NNC(=O)c1cc[n+]([B]C#N)cc1)c1ccccc1 | H37Rv |  | MIC |  |  |  | 12.5 µg/mL |
| Cn1c(=O)c2c(nc3sc4c(n32)C(=O)c2c(O)ccc(O)c2C4=O)n(C)c1=O | H37Rv |  | inhibition | BACTEC | 12.5 µg/mL |  | 0% |
| CC1CN(c2c(F)cc3c(=O)c(C(=O)O)cn(C4CC4)c3c2O)CCN1.O=S1CCCC1.[Cl][Rh]([Cl])[Cl] | ATCC 27294 |  | MIC |  |  |  | 0.68 µg/mL |
| CC1(C)OC2C(=O)C3COC(O3)C2O1 | H37Rv |  | MIC bound | BACTEC |  |  | >12.5 µg/mL |
| COc1ccc(NC(=O)CC(C(C)=O)C(=O)Nc2cccc3ccccc23)cc1 | H37Rv |  | inhibition |  | 5 µg/mL |  | 0% |
| COc1cc(-c2nnc(SCC(=O)c3ccc(Cl)cc3)o2)cc(OC)c1OC | H37Rv |  | inhibition | BACTEC | 6.25 µg/mL |  | 27% |
| Nc1c(Cl)c(Cl)nc(C(=O)[O-])c1Cl.[Na+] | H37Rv |  | inhibition | BACTEC | 12.5 µg/mL |  | 0% |
| CCOC(=O)c1ccc(NC(=O)CC(C(C)=O)C(=O)Nc2ccc(C(=O)OCC)cc2)cc1 | H37Rv |  | inhibition |  | 30 µg/mL |  | 0% |
| CCOc1ccc(-c2nnc(SCC3(c4ccccc4)OCCO3)o2)cc1 | H37Rv |  | inhibition | BACTEC | 6.25 µg/mL |  | 0% |
| C/C1=C\C(C)C(O)C(O)C(=O)C2(C)CNC3=C(O2)C(=O)c2c(cc(C)c(O)c2C1=O)C3=O | H37Rv |  | MIC bound | BACTEC |  |  | >12.5 µg/mL |
| CC(=O)C(CC(=O)Nc1ccccc1Cl)C(=O)Nc1cccc2ccccc12 | H37Rv |  | inhibition |  | 5 µg/mL |  | 0% |
| Cc1cn2c(C(=O)NCc3ccc(C(F)(F)F)cc3)c(C)nc2s1 | H37Rv |  | MIC | resazurin / fluorescence |  | QcrB7 S182P | 4.7 µM |
| Cc1nn(-c2nc(-c3ccccc3)cs2)c(C)c1C | H37Rv |  | inhibition | BACTEC | 12.5 µg/mL |  | 40% |
| O=[N+]([O-])c1cn2c(n1)OC[C@@H](OCc1ccc(Oc3ccc(OC(F)(F)F)cc3)cn1)C2 |  |  | MIC90 | low oxygen |  |  | 0.87 µM |
| CCc1c(Cl)c(OCCCCCCCOCCn2cc(CN3CCN(/N=C/c4c5c(O)c6c(O)c(C)c7c(c6c4O)C(=O)[C@@](C)(O/C=C/[C@H](OC)[C@@H](C)[C@@H](OC(C)=O)[C@H](C)[C@H](O)[C@H](C)[C@@H](O)[C@@H](C)/C=C/C=C(/C)C(=O)N5)O7)CC3)nn2)c(Cl)c(O)c1C(=O)OC1C(C)OC(OC/C2=C\C=C\C[C@H](O)/C(C)=C/[C@H](CC)[C@H](OC3OC(C)(C)C(OC(=O)C(C)C)C(O)C3O)/C(C)=C/C(C)=C/C[C@@H]([C@@H](C)O)OC2=O)C(OC)C1O | H37Ra |  | MIC | visual reading |  |  | 0.5 µg/mL |
| CCOC(=O)c1ccc(NC(=O)C(CC(=O)Nc2ccc(Cl)cc2)C(C)=O)cc1 | H37Rv |  | inhibition |  | 5 µg/mL |  | 0% |
| COc1cc(OC)c2nc3occc3c(OC)c2c1 | H37Rv |  | inhibition | BACTEC | 12.8 µg/mL |  | 33% |
| COc1ccc(C2C=C(c3c(O)c4ccccc4oc3=O)Nc3ccccc3S2)cc1 | H37Rv |  | MIC | resazurin |  |  | <6.25 µg/mL |
| C/C=C1\C(=O)O[C@]23C=C[C@@H]4C(C(=O)OC)=CO[C@H](O[C@@H]12)[C@@H]43 | H37Rv |  | MIC | MTT |  |  | 2.4 µg/mL |
| NNC(=O)c1ccncc1 | H37Rv |  | MIC | resazurin |  |  | 0.047 µg/mL |
| Cl.Cl.FC(F)(F)c1ccc2c(c1)N(CCCN1CCN(CCOc3ccccc3)CC1)c1ccccc1S2 | H37Rv |  | inhibition | BACTEC | 12.5 µg/mL |  | 99% |
| O=[N+]([O-])c1cn2c(n1)OC[C@@H](OCc1ccc(Cc3ccc(F)cc3)cc1)C2 |  |  | MIC90 | low oxygen |  |  | 0.85 µM |
| O=C1C(=Nc2cccc(Cl)c2)CC(c2ccc(Cl)cc2)N1c1ccc(Cl)cc1 | H37Rv |  | inhibition | BACTEC | 6.25 µg/mL |  | 8% |
| CC(NNC(=O)c1ccncc1)c1cccc(C(F)(F)F)c1 | H37Rv |  | MIC |  |  |  | 1.6 µg/mL |
| S=C(S)n1nc(-c2ccccc2)c(N=Nc2cccc(Cl)c2)c1-c1ccccc1 | H37Rv |  | MIC | BACTEC |  |  | ≥12.5 µg/mL |
| CSc1ccc(-c2nn(-c3ccccc3)cc2C2CC(c3ccccc3)=NN2)cc1 | H37Rv |  | inhibition | BACTEC | 6.25 µg/mL |  | 25% |
| O=C(O)c1c(C2CCCCC2)nc2ccccc2c1C1CCCCC1 | H37Rv |  | inhibition |  | 6.25 µg/mL |  | 0% |
| C/C(=N\NC(=O)c1ccncc1)c1ccc(F)cc1 | Isoniazid-resistant |  | MIC |  |  |  | >1.6 µg/mL |
| Cc1cn2c(C(=O)NCc3ccc(N4CCOCC4)c(F)c3)c(C)nc2s1 | H37Rv |  | MIC | resazurin / fluorescence |  |  | 0.227 µM |
| O=C(O)c1cnc2ccccc2c1C1C2CC3CC(C2)CC1C3 | H37Rv |  | MIC |  |  |  | >6.25 µg/mL |
| COc1cc(-c2nnc(SCC(=O)c3ccccc3)o2)cc(OC)c1OC | H37Rv |  | inhibition | BACTEC | 6.25 µg/mL |  | 19% |
| COc1cc(OC)c2cc(C(=O)c3cccc4ccccc34)c(=O)oc2c1 | H37Rv |  | inhibition | BACTEC | 12.5 µg/mL |  | 18% |
| CSc1ccc(-c2nn(-c3ccccc3)cc2C2CC(c3ccc(C)cc3)=NN2C(C)=O)cc1 | H37Rv |  | inhibition | BACTEC | 6.25 µg/mL |  | 86% |
| CC(=O)C(CC(=O)Nc1cccc2ccccc12)C(=O)Nc1cccc2ccccc12 | H37Rv |  | inhibition |  | 30 µg/mL |  | 0% |
| CCCCCCOCCN1CCN(CCCN2c3ccccc3Sc3ccc(C(F)(F)F)cc32)CC1.Cl.Cl | H37Rv |  | MIC bound | BACTEC |  |  | ≤12.5 µg/mL |
| O=C(N/N=C/c1cccc(F)c1)c1ccncc1 | Isoniazid-resistant |  | MIC |  |  |  | >6.4 µg/mL |
| CCOC(=O)c1ccc(NC(=O)CC(C(C)=O)C(=O)Nc2cccc3ccccc23)cc1 | H37Rv |  | inhibition |  | 30 µg/mL |  | 0% |
| O=[N+]([O-])c1cn2c(n1)OC[C@@H](OCc1cccc(C#Cc3ccc(C(F)(F)F)cc3)c1)C2 |  |  | MIC90 | low oxygen |  |  | 2 µM |
| COc1cc2ccc(Br)cc2cc1[C@@H](c1ccccc1)[C@](O)(CCN(C)C)c1ccccc1Br | H37Rv |  | MIC | resazurin |  |  | >32 µg/mL |
| COC(=O)c1cc(C2C3CC4CC(C3)CC2C4)c2ccccc2n1 | H37Rv |  | inhibition |  | 6.25 µg/mL |  | 34% |
| O=C(CSc1nnc(-c2ccccc2O)o1)c1ccccc1 | H37Rv |  | inhibition | BACTEC | 6.25 µg/mL |  | 45% |
| COC(=O)c1cnc2ccccc2c1C1C2CC3CC(C2)CC1C3 | H37Rv |  | inhibition |  | 6.25 µg/mL |  | 11% |
| c1ccc(P(CCc2ccccn2)c2ccccc2)cc1 | H37Rv | 14 d | MIC99 | broth dilution / visual reading |  |  | 160 µM |
| COc1ccc(/C=C/C(=O)c2ccc(Br)cc2O)cc1 | H37Rv |  | EC50 |  |  |  | >12.5 µg/mL |
| COc1ccc(-c2nnc(SCC3(c4ccc(Cl)cc4)OCCO3)o2)cc1 | H37Rv |  | inhibition | BACTEC | 6.25 µg/mL |  | 15% |
| N#C[B][n+]1ccc(C(=O)NNCc2cccc(C(F)(F)F)c2)cc1 | H37Rv |  | MIC |  |  |  | 0.8 µg/mL |
| Cc1cn2c(C(=O)NCc3ccc(Oc4ccc(F)cc4)cc3)c(C)nc2s1 | H37Rv |  | MIC | resazurin / fluorescence |  |  | 0.047 µM |
| C/C(=N\NC(=S)N1CCN(C2CCCCC2)CC1)c1ccccn1 | H37Rv |  | MIC bound | BACTEC |  |  | ≤12.5 µg/mL |
| O=[N+]([O-])c1cn2c(n1)OC[C@@H](OCc1ccc(C#Cc3ccc(C(F)(F)F)cc3)cn1)C2 |  |  | MIC90 | resazurin |  |  | 0.02 µM |
| O=C(NCCCl)N1CCC(CN=c2cc3n(-c4ccc(Cl)cc4)c4ccccc4nc-3cc2Nc2ccc(Cl)cc2)CC1 | H37Rv |  | inhibition | BACTEC | 12.5 µg/mL |  | 100% |
| O=c1oc2ccccc2c(O)c1C1=CC(c2ccc(F)cc2)Sc2ccccc2N1 | H37Rv |  | MIC | resazurin |  |  | <6.25 µg/mL |
| O=[N+]([O-])c1cn2c(n1)OC[C@@H](OCc1ccc(/C=C/c3ccc(C(F)(F)F)nc3)cc1)C2 |  |  | MIC90 | low oxygen |  |  | 0.91 µM |
| O=[N+]([O-])c1cc([N+](=O)[O-])c2nc3ccccn3c2c1 | H37Rv |  | inhibition | resazurin | 6.25 µg/mL |  | 56% |
| CSc1nnc(-c2ccccc2Br)o1 | H37Rv |  | inhibition | BACTEC | 6.25 µg/mL |  | 47% |
| O=[N+]([O-])c1cn2c(n1)OC[C@@H](OCc1ccc(C#Cc3ccc(C(F)(F)F)cc3)cc1)C2 |  |  | MIC90 | resazurin |  |  | 0.02 µM |
| NC(=N\N=C\C(O)C(O)C(O)C(O)C(=O)O)/C(N)=N/N=C/C(O)C(O)C(O)C(O)C(=O)O | H37Rv |  | MIC | BACTEC |  |  | ≥12.5 µg/mL |
| O=c1oc2ccccc2c(O)c1C1=CC(c2c[nH]c3ccccc23)Sc2ccccc2N1 | H37Rv |  | MIC | resazurin |  |  | <6.25 µg/mL |
| CC1COc2c(N3CCN(C)CC3)c(F)cc3c(=O)c(C(=O)O)cn1c23 | Y777 (streptomycin isoniazid rifampicin-resistant) |  | MIC |  |  |  | 8 µg/mL |
| Nc1nc2c(c(=O)[nH]1)CN(c1ccc(S(N)(=O)=O)cc1)CN2 | H37Rv |  | MIC bound | BACTEC |  |  | >12.5 µg/mL |
| O=C1CC(c2ccccc2)Oc2ccc(F)cc21 | H37Rv |  | inhibition |  | 12.5 µg/mL |  | 7% |
| Cc1cc(C2CCCC2)nc2c(C3CCCC3)cccc12 | H37Rv |  | inhibition |  | 6.25 µg/mL |  | 100% |
| CCOC(=O)c1ccc(NC(=O)C(CC(=O)Nc2ccc(OC)cc2)C(C)=O)cc1 | H37Rv |  | inhibition |  | 5 µg/mL |  | 0% |
| COc1cccc(C(=O)CSc2nnc(-c3cc(OC)c(OC)c(OC)c3)o2)c1 | H37Rv |  | inhibition | BACTEC | 6.25 µg/mL |  | 17% |
| CO[C@H]1/C=C/O[C@@]2(C)Oc3c(C)c(O)c4c(O)c(c(/C=N/N5CCN(C6CCCC6)CC5)c(O)c4c3C2=O)NC(=O)/C(C)=C\C=C\[C@H](C)[C@H](O)[C@@H](C)[C@@H](O)[C@@H](C)[C@H](OC(C)=O)[C@@H]1C | 29 isolates |  | MIC50 |  |  |  | 0.06 µg/mL |
| COc1cc2c(cc1OC)C(C(=O)O)C1c3cc4c(cc3CCN1C2=O)OCO4 | H37Rv |  | inhibition | BACTEC | 12.5 µg/mL |  | 0% |
| O=C(/C=C/c1ccc(Br)cc1)c1ccccc1O | H37Rv |  | EC50 |  |  |  | <12.5 µg/mL |